Key:
[1] = in vivo
JUNV GPC = JUNV GPC (Junin mammarenavirus, UniProt P26313); format: cell-based, Junin virus; settings: pH 5; read-out: EC50 of inhibition of JUNV GPC-mediated cell-cell fusion

Amino acid sequences for entries named in this document (tags omitted). Residues count along the entry.
UniProt P26313, 252-485 limits assumed: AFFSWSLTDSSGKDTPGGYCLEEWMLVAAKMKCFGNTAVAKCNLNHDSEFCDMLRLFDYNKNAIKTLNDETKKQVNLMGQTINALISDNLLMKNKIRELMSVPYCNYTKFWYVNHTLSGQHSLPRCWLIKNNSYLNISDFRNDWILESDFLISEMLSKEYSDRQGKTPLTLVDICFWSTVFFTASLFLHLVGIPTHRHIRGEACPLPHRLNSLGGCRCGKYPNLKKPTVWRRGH
UniProt P26313, 59-251 partner limits assumed: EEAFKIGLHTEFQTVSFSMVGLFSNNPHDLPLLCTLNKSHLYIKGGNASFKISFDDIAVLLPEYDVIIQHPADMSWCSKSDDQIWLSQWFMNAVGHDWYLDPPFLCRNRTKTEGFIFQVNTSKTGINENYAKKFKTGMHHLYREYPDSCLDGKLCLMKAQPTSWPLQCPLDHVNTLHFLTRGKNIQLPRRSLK
UniProt P26313, 2-58 limits assumed: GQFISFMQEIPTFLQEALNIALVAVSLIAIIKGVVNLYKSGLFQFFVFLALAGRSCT

For “N-2-(1,1,1,3,3,3-hexafluoro-1-methylpropyl)-2-[(4-difluoromethoxyphenyl)sulfonyl]hydrazine-1-carboxamide [ST-294]”, the “PK (rat/oral) bioavailability (F)” value [1] was 68.2% and the EC50 (JUNV GPC) was 1500 nM.

Reference: patent US9115065B2 (priority 2004, dated 2015)
